Source: patent publication US10342779B2 (Therapicon S.R.L., priority 2014, dated 2019)

Test system: mouse-adapted DENV-2 strain D2S10
Settings: 75 mg/Kg/day

COc1ccc2[nH]cc(CCNC(C)=O)c2c1 [Melatonin, N-acetyl-5-methoxytryptamine]
protection effects versus Dengue virus induced condition: Partial beneficial effects
